Pooled drug test results. Numbers come from NIAID ChemDB, via PubChem.

MIC bound: limit read from a one-dose screen.

{"compound": "Nc1c(-c2nc3ccccc3s2)[n+]([O-])c2ccccc2[n+]1[O-]", "kind": "culture", "measure": "inhibition", "read by": "BACTEC", "strain or isolate": "H37Rv", "dose": "12.5 µg/mL", "organism": "Mycobacterium tuberculosis", "value": "56%"}
{"compound": "CC(=O)c1ccc(-c2cncc(N3CCN(c4ccccn4)CC3)n2)cc1", "kind": "target", "measure": "inhibition", "protein": "UL97 kinase", "dose": "1 µM", "organism": "Cytomegalovirus", "value": "<50%"}
{"compound": "C[C@H]1C=C[C@H]([C@H](N)C(=O)O)O1", "kind": "culture", "measure": "MIC", "read by": "BACTEC", "strain or isolate": "H37Rv", "organism": "Mycobacterium tuberculosis", "value": "≥12.8 µg/mL"}
{"compound": "COc1ccc(N2CCN(c3cncc(-c4ccc(F)cc4F)n3)CC2)cc1OC", "kind": "target", "measure": "inhibition", "protein": "UL97 kinase", "dose": "10 µM", "organism": "Cytomegalovirus", "value": ">15%"}
{"compound": "O=C(O)c1ccccc1N=Nc1ccc(O)cc1O", "kind": "culture", "measure": "MIC", "strain or isolate": "H37Rv", "organism": "Mycobacterium tuberculosis", "value": ">100 µg/mL"}
{"compound": "Fc1cccc(-c2cncc(N3CCN(c4ccccc4F)CC3)n2)c1", "kind": "target", "measure": "inhibition", "protein": "UL97 kinase", "dose": "10 µM", "organism": "Cytomegalovirus", "value": ">15%"}
{"compound": "Cn1c(-c2ccc(-c3cc(-c4cccs4)c(-c4cccs4)n3C)cc2)cc(-c2cccs2)c1-c1cccs1", "kind": "culture", "measure": "MIC bound", "read by": "BACTEC", "strain or isolate": "H37Rv", "organism": "Mycobacterium tuberculosis", "value": ">6.25 µg/mL"}
{"compound": "CCN(CC)Cc1cc(N)ccc1O.Cl", "kind": "culture", "measure": "MIC", "strain or isolate": "H37Rv", "organism": "Mycobacterium tuberculosis", "value": ">100 µg/mL"}
{"compound": "O=C(NC12CC3CC(CC(C3)C1)C2)C(=O)c1c[nH]c2ccc([N+](=O)[O-])cc12", "kind": "culture", "measure": "MIC bound", "read by": "resazurin", "strain or isolate": "H37Rv", "organism": "Mycobacterium tuberculosis", "value": ">6.25 µg/mL"}
{"compound": "Fc1ccc(N2CCCCC2)c(NC(=S)c2ccncc2)c1", "kind": "host protein", "measure": "inhibition", "read by": "kinase activity", "protein": "DAPK1", "dose": "10 µM", "value": "4%"}
{"compound": "O=C1C=C(Nc2ccc(O)cc2)c2ccccc2C1=O", "kind": "culture", "measure": "inhibition", "read by": "resazurin", "strain or isolate": "H37Rv", "dose": "6.25 µg/mL", "organism": "Mycobacterium tuberculosis", "value": "59%"}
{"compound": "c1nn[nH]n1", "kind": "culture", "measure": "MIC", "strain or isolate": "H37Rv", "organism": "Mycobacterium tuberculosis", "value": ">100 µg/mL"}
{"compound": "CC(=O)OC1CCn2nnc(COC(=O)NC(C)C)c21", "kind": "culture", "measure": "MIC bound", "read by": "resazurin", "strain or isolate": "H37Rv", "organism": "Mycobacterium tuberculosis", "value": ">6.25 µg/mL"}
{"compound": "Nc1cc(=O)[nH]c2ccccc12", "kind": "culture", "measure": "MIC", "strain or isolate": "H37Rv", "organism": "Mycobacterium tuberculosis", "value": ">100 µg/mL"}
{"compound": "COc1ccc(Cl)cc1-c1cncc(N2CCN(c3ccccc3OC)CC2)n1", "kind": "target", "measure": "inhibition", "protein": "UL97 kinase", "dose": "10 µM", "organism": "Cytomegalovirus", "value": ">15%"}
{"compound": "CCCCCCCCCC(=O)CCCCCCCCC", "kind": "culture", "measure": "MIC", "strain or isolate": "H37Rv", "organism": "Mycobacterium tuberculosis", "value": ">100 µg/mL"}
{"compound": "S=C(S)n1nc(-c2ccccc2)c(N=Nc2cccc(Cl)c2)c1-c1ccccc1", "kind": "culture", "measure": "MIC bound", "read by": "BACTEC", "strain or isolate": "H37Rv", "organism": "Mycobacterium tuberculosis", "value": ">12.5 µg/mL"}
{"compound": "CSc1ccc(-c2cncc(N3CCC(c4ccccc4)CC3)n2)cc1", "kind": "target", "measure": "IC50", "protein": "UL97 kinase", "organism": "Cytomegalovirus", "value": "<10 µM"}
{"compound": "Cc1ccc(Nc2ccc(O)c3c2C(=O)c2c(O)ccc(Nc4ccc(C)cc4)c2C3=O)cc1", "kind": "culture", "measure": "MIC", "strain or isolate": "H37Rv", "organism": "Mycobacterium tuberculosis", "value": ">100 µg/mL"}
{"compound": "Cc1cccc(N2CCN(c3cncc(-c4ccoc4)n3)CC2)c1C", "kind": "target", "measure": "inhibition", "protein": "UL97 kinase", "dose": "10 µM", "organism": "Cytomegalovirus", "value": ">15%"}
{"compound": "CCCCCOc1ccc(C(=O)O)cc1[N+](=O)[O-]", "kind": "culture", "measure": "MIC", "strain or isolate": "H37Rv", "organism": "Mycobacterium tuberculosis", "value": ">100 µg/mL"}

For reference, 2 entries again:

Cc1cccc(N2CCN(c3cncc(-c4ccoc4)n3)CC2)c1C ; kind: target ; measure: inhibition ; protein: UL97 kinase ; dose: 10 µM ; organism: Cytomegalovirus ; value: >15%
CCCCCCCCCC(=O)CCCCCCCCC ; kind: culture ; measure: MIC ; strain or isolate: H37Rv ; organism: Mycobacterium tuberculosis ; value: >100 µg/mL

Inhibition is in % at the dose shown (toxicity tests: loss of growth or viability). Conditions beyond the fields shown may differ between rows. ICn is the concentration giving n% inhibition.